Human monoclonal antibodies against the spike receptor-binding domain (heavy:light variable regions). IC50 against pseudoviruses bearing the spike of naturally observed variants; lower = stronger; >10 µg/ml means not reached at the top dose. No active / inactive call. The stated detection limit is 0.0005 µg/ml; values near or below 0.001 µg/ml lie at the floor of the assay.
Columns and labels:
Experiment in all cases: pseudovirus neutralization IC50; higher = weaker neutralization
[1] = target: SARS-CoV-2 Omicron BA.1 spike pseudovirus
Experimental: (§1)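 Single-round VSV luciferase pseudovirus mixed with antibody dilutions for 1 h and put on Huh-7 cells for about a day; IC50 from the dose curve.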

[2] = target: SARS-CoV-2 Omicron BA.2 spike pseudovirus
Experimental: as §1

[3] = target: SARS-CoV-2 Omicron BA.2.75 spike pseudovirus
Experimental: as §1

[4] = target: SARS-CoV-2 Omicron BA.5 spike pseudovirus
Experimental: as §1

[5] = target: SARS-CoV-2 Omicron BQ.1.1 spike pseudovirus
Experimental: as §1

[6] = target: SARS-CoV-2 Omicron XBB spike pseudovirus
Experimental: as §1

[7] = target: SARS-CoV-2 early D614G spike pseudovirus
Experimental: as §1

B1: BD55-6356 (protein)
chain 1: EVQLLESGGDLVQPGGSLRLSCAASRFTFSSYAMTWVRQAPGKGLEWVSTISGDGASTFYPDSVKGRFTISRDNSKNTLYLQMNSLRAEDTAVYYCAKSPIPPSDSSGYYWIDENDAFDIWGQGTMVTVSS
chain 2: QAVVTQEPSLTVSPGGTVTLTCGSSIGAVTSGHYPYWFQQKPGQAPRTLIYDTWNKHSWTPARFSGSLLGGKAALTLSGAQPEDEAEYYCLLSYSGAREWVFGGGTKLTVI
What does the source list for B1?
pseudovirus neutralization IC50 [1]: > 10 µg/mL; pseudovirus neutralization IC50 [2]: > 10 µg/mL; pseudovirus neutralization IC50 [3]: > 10 µg/mL; pseudovirus neutralization IC50 [4]: > 10 µg/mL; pseudovirus neutralization IC50 [5]: > 10 µg/mL; pseudovirus neutralization IC50 [6]: > 10 µg/mL; pseudovirus neutralization IC50 [7]: > 10 µg/mL

B2: BD55-6363 (protein)
chain 1: QVQLVESGGGLVKPGGSLRLSCAASGFTFSDYYMSWIRQAPGKGLEWVSYISGSGSIQDYPDSVKGRFTVSRDNTKNSLYLQMNSLRAEDTAVYYCARGTKSQYYYDESGYSTQYWGQGTLVTVSS
chain 2: DVVMTQSPLSLPVTLGQPASISCRSSQSLVYADGSTYLNWFYQRPGQSPRRLIYRVSDRDSGVPDRFSGSGSGTDFTLKISRVEAEDVGIYYCMQGTHWPPTFGQGTKLEIK
Which results are given for B2?
pseudovirus neutralization IC50 [1]: 2.73 µg/mL; pseudovirus neutralization IC50 [2]: 2.16 µg/mL; pseudovirus neutralization IC50 [3]: 2.65 µg/mL; pseudovirus neutralization IC50 [4]: 3.61 µg/mL; pseudovirus neutralization IC50 [5]: 3.57 µg/mL; pseudovirus neutralization IC50 [6]: 4.12 µg/mL; pseudovirus neutralization IC50 [7]: 2.82 µg/mL

B3: BD55-6368 (protein)
chain 1: EVQLVESGGGLVKPGGSLRLSCAASGFTFSTFSMHWVRQAPGKGLEWVSSISGRSSLNFYADSVKGRFTISRDNAKNSLFLQMNSLRAEDTAVYYCARESSDVYNVNFDYWGQGTLVTVSS
chain 2: DIQMTQSPSSLSASVGDRVTITCRASQTIRNYLNWYQQKPGKAPKLLVYAASSLHSGVPSRFSGSGSGTDFTLTISSLQPEDFATYYCQQGYISPQATFGPGTKVEIK
Which results are given for B3?
pseudovirus neutralization IC50 [1]: > 10 µg/mL; pseudovirus neutralization IC50 [2]: > 10 µg/mL; pseudovirus neutralization IC50 [3]: > 10 µg/mL; pseudovirus neutralization IC50 [4]: > 10 µg/mL; pseudovirus neutralization IC50 [5]: > 10 µg/mL; pseudovirus neutralization IC50 [6]: > 10 µg/mL; pseudovirus neutralization IC50 [7]: > 10 µg/mL

B4: BD55-6374 (protein)
chain 1: EVQLVESGGGLVQPGGSLRLSCAASGFSFSGSAMHWVRQAPGKGLEYVSSITSDGGGTFYADSVKGRFTISRDNSKKTLYLQMGSLRADDIGVYYCAREGPYVFLTLDSWGQGTLVTVSS
chain 2: DIQMTQSPSSLSASVGDRVTITCRASQNINGYLNWYQQKPGKGPKLLIYAASTLESGVPSRFSGSGSGTEFTLTISSLQPEDFATYYCQQSYVTPLYTFGQGTKLEIK
How did the “pseudovirus neutralization IC50” value [1] turn out when B4 was run?
The value was 6.66 µg/mL.

And the “pseudovirus neutralization IC50” value [2]?
The value was 4.47 µg/mL.

What about the “pseudovirus neutralization IC50” value [3] of the same binder?
The value was 3.22 µg/mL.

What about the “pseudovirus neutralization IC50” value [4] of the same binder?
The value was 5.64 µg/mL.

And the “pseudovirus neutralization IC50” value [5]?
The value was 3.08 µg/mL.

And the “pseudovirus neutralization IC50” value [6]?
The value was 4.91 µg/mL.

And the “pseudovirus neutralization IC50” value [7]?
Its value is 6.37 µg/mL.

B5: BD55-6375 (protein)
chain 1: EVQLVQSGAEVKKPGESLKISCKGSGHNFIVYWIAWVRQMPGKGLEWMGIIYPGDSETKYSPSFQGQVTISADKSINTAYLQWSSLKASDTAIYYCATAGGWLGDSFDFWGQGTLVTVSS
chain 2: EIVLTQSPGTLSLSPGERATLSCRASQSITRSYLAWYQQKPGQAPRLLIYGASSRATGIPDRFSGSGSGTDFTLTIRRLEPDDVAVYYCQQYGGSPLTFGGGTKVEIK
With B5 as the binder, how does the “pseudovirus neutralization IC50” value [1] read?
The value was greater than 10 µg/mL.

What about the “pseudovirus neutralization IC50” value [2] of the same binder?
Its value is greater than 10 µg/mL.

What about the “pseudovirus neutralization IC50” value [3] of the same binder?
The value was greater than 10 µg/mL.

What about the “pseudovirus neutralization IC50” value [4] of the same binder?
The value was greater than 10 µg/mL.

And the “pseudovirus neutralization IC50” value [5]?
Its value is greater than 10 µg/mL.

What about the “pseudovirus neutralization IC50” value [6] of the same binder?
The value was greater than 10 µg/mL.

And the “pseudovirus neutralization IC50” value [7]?
Its value is 4.24 µg/mL.

B6: BD55-6379 (protein)
chain 1: QVQLVQSGTEVKKPGSSVKVSCRASGGTLNTYAFNWVRQAPGQGLEWVGRIFPTPGIADYAQKFQGRVTITADKSTSAGYMELRSLSHEDTAVYYCARAPPRGYSGYDLLGNDPFDIWGQGTMVTVSS
chain 2: QSVLTQPPSVSGAPGQRVTISCTGSSSNIGAGYDVHWYQHVPGTAPKLLIYGNNNRPSGVPDRFSGSKSGTSGSLAITGLQPDDEADYYCQSYDTSLSGSYVFGTGTKVTVL
B6 was tested. Which “pseudovirus neutralization IC50” value [1] did it give?
The value was greater than 10 µg/mL.

And the “pseudovirus neutralization IC50” value [2]?
The value was greater than 10 µg/mL.

What about the “pseudovirus neutralization IC50” value [3] of the same binder?
The value was greater than 10 µg/mL.

And the “pseudovirus neutralization IC50” value [4]?
The value was greater than 10 µg/mL.

And the “pseudovirus neutralization IC50” value [5]?
Its value is greater than 10 µg/mL.

And the “pseudovirus neutralization IC50” value [6]?
Its value is greater than 10 µg/mL.

What about the “pseudovirus neutralization IC50” value [7] of the same binder?
The value was 0.0816 µg/mL.

Reference: the supplement of paper PMC9931576
